A mixed list of measured activities; the numbers were collected in NIAID ChemDB.

Shared fields: enzyme or target tests; organism: Plasmodium falciparum

ICn is the concentration giving n% inhibition.

structure,endpoint,target,read by,value
CCOP(=O)(CCC(=O)Nc1cccc(CO)c1)OCC,IC50,PfDXR,absorbance,>500 µM
O=S(=O)(/C=C/[C@H](CCc1ccccc1)NC1CCC2(CC1)OOC1(OO2)C2CC3CC(C2)CC1C3)c1ccccc1,IC50,Falcipain-2,fluorescence,>50 µM
CC(=O)N(O)CCCP(=O)(O)O,IC50,PfDXR,absorbance,0.0153 µM
N#Cc1cccc(NC(=O)CP(=O)(O)O)c1,IC50,PfDXR,absorbance,>500 µM
CN(O)C(=O)CCC(c1ccccc1)P(=O)(O)O,Ki,PfDXR,absorbance,0.00042 µM
CC(C)C[C@H](NC(=O)C1CCC2(CC1)OOC1(CCCCC1)OO2)C(=O)N[C@H](/C=C/S(=O)(=O)c1ccccc1)CCc1ccccc1,IC50,Falcipain-2,fluorescence,0.9648 µM
O=C(O)c1cccc(C=C2SC(=O)N(CC(=O)N3CCN(c4ccccc4)CC3)C2=O)c1,IC50,Falcipain-2,fluorescence,>50 µM
CC(C)C[C@H](NC(=O)C1CCC2(CC1)OOC1(O2)C2CC3CC(C2)CC1C3)C(=O)N[C@H](/C=C/S(=O)(=O)c1ccccc1)CCc1ccccc1,IC50,Falcipain-2,fluorescence,2.929 µM
O=C(CN1C(=O)CSC1=O)N1CCN(c2ccccc2)CC1,IC50,Falcipain-2,fluorescence,>50 µM
CC(C)C[C@H](NCC1CCC2(CC1)OOC1(OO2)C2CC3CC(C2)CC1C3)C(=O)N[C@H](/C=C/S(=O)(=O)c1ccccc1)CCc1ccccc1,IC50,Falcipain-2,fluorescence,6.672 µM
O=C(CN1C(=O)SC(=Cc2cccc(F)c2)C1=O)N1CCN(c2ccccc2)CC1,IC50,Falcipain-2,fluorescence,33.25 µM
CCN(CC)CCCC(C)Nc1ccnc2cc(Cl)ccc12,IC50,Histidine-rich protein 2,ELISA,1.03 µM
COc1cc(OC)c(C=C2SC(=O)N(CC(=O)N3CCN(c4cccc(Cl)c4)CC3)C2=O)c(OC)c1,IC50,Falcipain-2,fluorescence,16.25 µM
CC(C)C[C@@H](/C=C/S(C)(=O)=O)NC(=O)[C@H](CC(C)C)NC(=O)C1CCC2(CC1)OOC1(OO2)C2CC3CC(C2)CC1C3,IC50,Falcipain-2,fluorescence,1.698 µM
COc1cc(OC)c(C=C2SC(=O)N(CC(=O)N3CCN(c4ccccc4Cl)CC3)C2=O)c(OC)c1,IC50,Falcipain-2,fluorescence,12.64 µM
CCOP(=O)(CCC(=O)Nc1cccc(O)c1)OCC,IC50,PfDXR,absorbance,>500 µM

For reference, 2 entries again:

structure	endpoint	target	read by	value
CC(C)C[C@H](NCC1CCC2(CC1)OOC1(OO2)C2CC3CC(C2)CC1C3)C(=O)N[C@H](/C=C/S(=O)(=O)c1ccccc1)CCc1ccccc1	IC50	Falcipain-2	fluorescence	6.672 µM
COc1cc(OC)c(C=C2SC(=O)N(CC(=O)N3CCN(c4ccccc4Cl)CC3)C2=O)c(OC)c1	IC50	Falcipain-2	fluorescence	12.64 µM

Conditions beyond the fields shown may differ between rows.